A mixed list of measured activities; the numbers were collected in NIAID ChemDB.

All rows: tests on isolated targets; agent: Hepatitis C virus

Percent inhibition refers to the dose given; in toxicity tests it is the harm to the cells. An empty or dashed field is not shown. ICn is the concentration giving n% inhibition. Fold resistance: result on the changed form divided by that on wild type. Rows are shuffled and stem from different studies. Two numbers with a dash give a range or band.

structure	protein	measure	dose	read by	strain	mutations	conditions	value
CC(=O)N[C@@H](CC(=O)O)C(=O)N[C@@H](CCC(=O)O)C(=O)N[C@H](C(=O)N[C@@H](CCC(=O)O)C(=O)N[C@@H](CC1CCCCC1)C(=O)N[C@@H](CS)C(=O)O)C(c1ccccc1)c1ccccc1	HCV NS3 protease	IC50						0.05 µM
C[C@@]1(O)[C@H](O)[C@@H](COP(=O)(O)OP(=O)(O)OP(=O)(O)O)O[C@@]1(C#N)c1ccc2c(N)ncnn12	Nonstructural protein 5B	fold resistance		radiometric	2a JFH-1	S282T		91
C=CC1CC1(NC(=O)[C@@H]1C[C@@H](Oc2cc(-c3ccccc3)nc3cc(OC)ccc23)CN1C(=O)[C@H](CC1CCCCC1)NC(=O)OC(C)(C)C)C(=O)NS(=O)(=O)C1CC1	NS3/NS4A protease	IC50			BMS			<0.5 µM
C=C[C@H]1CC1(NC(=O)[C@@H]1C[C@@H](Oc2cc(C)nc3ccccc23)CN1C(=O)[C@@H](NC(=O)OC(C)(C)C)C1CCCCC1)C(=O)O	HCV NS3/NS4A protease	IC50						2.5 µM
C=C[C@@H]1C[C@]1(NC(=O)[C@@H]1C[C@@H](Oc2cc(-c3ccccc3)nc3cc(OC)ccc23)CN1C(=O)[C@@H](NC(=O)OC(C)(C)C)C(C)(C)C)C(=O)O	NS3/NS4A protease	IC50			BMS			<0.5 µM
CSCC[C@H](NC(=O)[C@H](CCC(=O)O)NC(=O)[C@H](CC(=O)O)NC(C)=O)C(=O)N[C@@H](CCC(=O)O)C(=O)N[C@@H](CC1CCCCC1)C(=O)N[C@@H](CS)C(=O)O	Full-length NS3	Ki						1.04 µM
C=C[C@H]1CC1(NC(=O)[C@@H]1C[C@@H](Oc2cc(-c3cccc(OC)c3)nc3cc(OC)ccc23)CN1C(=O)[C@@H](NC(=O)OC(C)(C)C)C(C)(C)C)C(=O)O	HCV NS3/NS4A protease	IC50						0.07 µM
O=C(O)c1sc(-c2ccccc2)cc1NS(=O)(=O)c1ccc(-c2csnn2)s1	NS3 ATPase	IC50						5–20 µM
CC(=O)N[C@H](C(=O)N[C@@H](CCC(=O)O)C(=O)N[C@@H](CC1CCCCC1)C(=O)N[C@@H](CS)C(=O)O)C(c1ccccc1)c1ccccc1	HCV NS3 protease	IC50						30 µM
CC(C)N(C(=O)C1CC[C@@H](C)CC1=O)c1cc(-c2ccccc2)sc1C(=O)O	NS3 ATPase	IC50						<5 µM
CC(=O)N[C@@H](CC(=O)O)C(=O)N[C@H](CC(C(=O)O)C(=O)O)C(=O)N[C@H](C(=O)N[C@@H](CCC(=O)O)C(=O)N[C@@H](CC1CCCCC1)C(=O)N[C@@H](CS)C(=O)C(=O)O)c1cccc2ccccc12	NS3/NS4A serine protease	Ki						0.00005 µM
CC[C@H]1CC1(NC(=O)[C@@H]1C[C@@H](Oc2cc(-c3ccccc3)nc3cc(OC)ccc23)CN1C(=O)[C@@H](Nc1ccc(C(=O)OC(C)(C)C)cc1)C(C)(C)C)C(=O)O	HCV NS3/NS4A protease	IC50						0.13 µM
O=C(CCCCCCC(=O)Nc1ccc(-c2nc3ccccc3s2)cc1)Nc1ccc(-c2nc3ccccc3s2)cc1	Nonstructural protein 3 NTPase/helicase	IC50						>25 µg/mL
CC(=O)N[C@@H](CC(=O)O)C(=O)N[C@H](CC(C(=O)O)C(=O)O)C(=O)N[C@H](C(=O)N[C@@H](CCC(=O)O)C(=O)N[C@@H](CC1CCCCC1)C(=O)N[C@@H](CS)C(=O)C(=O)O)c1ccccc1	NS3/NS4A serine protease	Ki						0.001 µM
CC[C@@H]1C[C@]1(NC(=O)[C@@H]1C[C@@H](Oc2cc(-c3ccccc3)nc3cc(OC)ccc23)CN1C(=O)[C@H](CC1CCCCC1)NC(=O)OC(C)(C)C)C(=O)NS(C)(=O)=O	NS3/NS4A protease	IC50			BMS			<0.5 µM
Nc1nccs1	Nonstructural protein 3 NTPase/helicase	IC50						>25 µg/mL
O=c1c(O)c(-c2cc(O)c(O)c(O)c2)oc2cc(O)cc(O)c12	Replicase complex	inhibition	20 µM	SYBR Green	J4			79.2%
CC(C)N(C(=O)C1CC[C@@H](C)C[C@@H]1C)c1cc(-c2ccccc2)sc1C(=O)O	NS3 ATPase	IC50						<5 µM
O=c1cc(-c2ccccc2)oc2c(O)c(O)cc(O)c12	Replicase complex	inhibition	20 µM	SYBR Green	J4			47.4%
O=C(O)c1sc(-c2ccccc2)cc1N(Cc1ccc(F)cc1F)C(=O)C1CCC1	NS3 ATPase	IC50						<5 µM
C=C[C@@H]1C[C@]1(NC(=O)[C@@H]1C[C@@H](Oc2cc(-c3ccccc3)nc3cc(OC)ccc23)CN1C(=O)[C@@H](NC(=O)OC1CCOC1)C(C)(C)C)C(=O)NS(=O)(=O)C1CC1	NS3/NS4A protease	IC50			BMS			<0.05 µM
Cc1ccc(S(=O)(=O)Nc2cc(-c3ccc(Cl)cc3)sc2C(N)=O)cc1	NS3 ATPase	IC50						5–20 µM
NCCc1c[nH]c2ccccc12	Nonstructural protein 3 NTPase/helicase	IC50						>25 µg/mL
O=c1c(O)c(-c2ccc(O)cc2)oc2cc(O)cc(O)c12	Replicase complex	inhibition	20 µM	SYBR Green	J4			74.7%
C=C[C@H]1CC1(NC(=O)[C@@H]1C[C@@H](Oc2nc(-c3ccccc3)nc3ccccc23)CN1C(=O)[C@@H](Nc1ccc(C(=O)O)cc1)C1CCCCC1)C(=O)O	HCV NS3/NS4A protease	IC50						0.65 µM
O=C(O)c1sc(-c2ccccc2)cc1NS(=O)(=O)c1ccccc1C(F)(F)F	NS3 ATPase	IC50						>20 µM
O=C(CCCCCCCCC(=O)Nc1ccc(-c2nc3ccccc3[nH]2)cc1)Nc1ccc(-c2nc3ccccc3[nH]2)cc1	Nonstructural protein 3 NTPase/helicase	IC50						>25 µg/mL
CSCC[C@H](NC(=O)[C@H](CCC(=O)O)NC(=O)[C@H](CC(=O)O)NC(C)=O)C(=O)N[C@@H](CCC(=O)O)C(=O)N[C@@H](Cc1ccc2ccccc2c1)C(=O)N[C@@H](CS)C(=O)O	HCV NS3 protease	Ki						0.4 µM
O=c1c(O)c(-c2ccccc2O)oc2cc(O)cc(O)c12	Replicase complex	inhibition	20 µM	SYBR Green	J4			70.5%
CC[C@H](C)[C@H](NC(=O)[C@H](CC(C)C)NC(=O)[C@@H](CC(C(=O)O)C(=O)O)NC(=O)[C@H](CC(=O)O)NC(C)=O)C(=O)N[C@@H](CC1CCCCC1)C(=O)N[C@@H](CS)C(=O)O	NS3/NS4A protease	IC50						0.0015 µM
O=C(O)c1sc(-c2ccccc2)cc1N(Cc1ccc(-c2cc3ccccc3o2)s1)C(=O)c1ccc(Cl)cc1Cl	NS3 ATPase	IC50						5–20 µM
CC(C(=O)N[C@H](C(=O)N1C[C@H](OCc2cccc3ccccc23)C[C@H]1C(=O)NC1(C(=O)O)CC1)C1CCCCC1)C1CCCCC1	HCV NS3/NS4A protease	IC50						45 µM
C=C[C@@H]1C[C@]1(NC(=O)[C@@H]1C[C@@H](Oc2nccc3ccc(Br)cc23)CN1C(C)=O)C(=O)NS(=O)(=O)C1CC1	Nonstructural protein 3/4A	IC50		FRET	1b R155K			>3 µM
Cn1c(=O)c(C2=NS(=O)(=O)c3ccccc3N2)c(O)c2ccccc21	RNA-dependent RNA polymerase	IC50						>50 µM
NCc1ccco1	Nonstructural protein 3 NTPase/helicase	IC50						>25 µg/mL
CCC[C@H](NC(=O)C1C[C@@H](OC(=O)N2CCc3ccccc3C2)CN1C(=O)[C@@H](NC(=O)[C@@H](NC(=O)c1cnccn1)C(C)C)C(C)C)C(=O)C(=O)N1CCC1	HCV NS3 protease	Ki						<1 µM
Oc1cc(O)c2c(c1)OC(c1ccc(O)c(O)c1)C(O)C2	Replicase complex	inhibition	20 µM	SYBR Green	J4			17.7%
C=C[C@H]1CC1(NC(=O)[C@@H]1C[C@@H](Oc2cc(-c3ccccc3)nc3ccc(N)cc23)CN1C(=O)[C@@H](NC(=O)OC(C)(C)C)C1CCCCC1)C(=O)O	HCV NS3/NS4A protease	IC50						0.66 µM
CC(=O)N[C@@H](CC(=O)O)C(=O)N[C@H](CC(C(=O)O)C(=O)O)C(=O)N[C@H](C(=O)N[C@H](C(=O)N[C@@H](CC1CCCCC1)C(=O)N[C@@H](CS)C(=O)C(=O)O)C(C)(C)C)C(c1ccccc1)c1ccccc1	NS3/NS4A serine protease	Ki						0.00006 µM
C=C[C@H]1CC1(NC(=O)[C@@H]1C[C@@H](Oc2cccc3c2CCN(C(C)=O)C3)CN1C(=O)[C@@H](Nc1ccc(C(=O)OC(C)(C)C)cc1)C(C)(C)C)C(=O)O	HCV NS3/NS4A protease	IC50						6 µM
CC[C@H](C)[C@H](NC(=O)[C@@H](NC(=O)[C@H](CCC(=O)O)NC(=O)[C@H](CC(=O)O)NC(C)=O)C(c1ccccc1)c1ccccc1)C(=O)N[C@@H](CC1CCCCC1)C(=O)N[C@@H](CS)C(N)=O	NS3/NS4A protease	IC50						3.1 µM
CN(C(=O)C1CCCC1)c1cc(-c2ccccc2)sc1C(=O)O	NS3 ATPase	IC50						<5 µM
CC(=O)N[C@@H](CCC(=O)O)C(=O)N[C@H](C(=O)N[C@@H](CCC(=O)O)C(=O)N[C@@H](CC1CCCCC1)C(=O)N[C@@H](CS)C(=O)O)C(c1ccccc1)c1ccccc1	HCV NS3 protease	IC50						1.4 µM
C=C[C@H]1CC1(NC(=O)[C@@H]1C[C@@H](Oc2cc(-c3csc(NCC)n3)nc3cc(OC)ccc23)CN1C(=O)[C@@H](Nc1ccc(C(=O)N[C@H](C)C(C)(C)C)cc1)C(C)(C)C)C(=O)O	HCV NS3/NS4A protease	IC50						0.007 µM
COc1cc(OC)c2c(=O)c(OC)c(-c3ccc(OC)c(OC)c3)oc2c1	Replicase complex	inhibition	20 µM	SYBR Green	J4			4%
CC(=O)N[C@@H](CC(=O)O)C(=O)N[C@H](C(=O)N[C@H](C(=O)N[C@@H](CCC(=O)O)C(=O)N[C@@H](CC1CCCCC1)C(=O)N[C@@H](CS)C(=O)C(=O)O)C(c1ccccc1)c1ccccc1)c1ccccc1	NS3/NS4A serine protease	Ki						160 µM
O=c1c(O)c(-c2ccc(O)c(O)c2)oc2cc(O)c(O)c(O)c12	Replicase complex	IC50		SYBR Green	J4		genotype 1b	4.3 µM
O=C(/C=C/C(=O)Nc1ccc(-c2nc3ccccc3s2)cc1)Nc1ccc(-c2nc3ccccc3s2)cc1	Nonstructural protein 3 NTPase/helicase	IC50						>25 µg/mL
CC(C)N(C(=O)C1=CC[C@@H](C)CC1)c1cc(-c2ccccc2)sc1C(=O)O	NS3 ATPase	IC50						<5 µM
C=C[C@H]1CC1(NC(=O)[C@@H]1C[C@@H](Oc2nc(-c3ccccc3)nc3ccccc23)CN1C(=O)[C@@H](Nc1ccc(C(=O)OC(C)(C)C)cc1)C(C)(C)C)C(=O)O	HCV NS3/NS4A protease	IC50						0.19 µM

The first 3 rows once more:

structure | protein | measure | dose | read by | strain | mutations | conditions | value
CC(=O)N[C@@H](CC(=O)O)C(=O)N[C@@H](CCC(=O)O)C(=O)N[C@H](C(=O)N[C@@H](CCC(=O)O)C(=O)N[C@@H](CC1CCCCC1)C(=O)N[C@@H](CS)C(=O)O)C(c1ccccc1)c1ccccc1 | HCV NS3 protease | IC50 |  |  |  |  |  | 0.05 µM
C[C@@]1(O)[C@H](O)[C@@H](COP(=O)(O)OP(=O)(O)OP(=O)(O)O)O[C@@]1(C#N)c1ccc2c(N)ncnn12 | Nonstructural protein 5B | fold resistance |  | radiometric | 2a JFH-1 | S282T |  | 91
C=CC1CC1(NC(=O)[C@@H]1C[C@@H](Oc2cc(-c3ccccc3)nc3cc(OC)ccc23)CN1C(=O)[C@H](CC1CCCCC1)NC(=O)OC(C)(C)C)C(=O)NS(=O)(=O)C1CC1 | NS3/NS4A protease | IC50 |  |  | BMS |  |  | <0.5 µM